Anti-infective test results gathered from many reports (values: NIAID ChemDB through PubChem).

All rows: growth or infection tests; organism: HIV-1; read by: cytopathic effect / MTT; endpoint: EC50

a–b is a range or a potency band. Blank or dashed fields: not listed here. Neighbouring rows are from separate reports. ECn is the concentration giving n% inhibition of infection, replication or growth.

smiles,changes,cell line,strain or isolate,result
C[C@H](Cn1cnc2c(N(C)C)ncnc21)OCP(=O)(O)O,,MT-4,IIIB,0.4 ± 0.01 µg/mL
CC(C)(C)NC(=O)[C@@H]1CN(Cc2cccnc2)CCN1C[C@H](C[C@@H](Cc1ccccc1)C(=O)N[C@H]1c2ccccc2C[C@H]1OC(=O)CCCCOc1ccc(C[C@H](N)C(=O)O)cc1)OC(=O)CCCCOc1ccc(C[C@H](N)C(=O)O)cc1,,MT-4,IIIB,1.4 µM
CCn1cc(C(=O)O)c(=O)c2cc(F)c(N3CCN(CN4C(=O)C(=Nc5ccc(S(=O)(=O)Nc6ncccn6)cc5)c5ccccc54)CC3)cc21,,MT-4,IIIB,>48 µg/mL
Nc1nc(NC2CC2)c2ncn(CCOCP(=O)(O)O)c2n1,,MT-4,IIIB,0.11 µg/mL
CC(=O)OC1[C@]2(C)[C@@H]3[C@@H](C[C@@]1(OC(C)=O)[C@H](OC(C)=O)[C@H]1[C@@H](OC(=O)c4ccccc4)[C@@H](C)C[C@]1(O)[C@@H]2OC(C)=O)C(=O)C(C)(C)[C@H]3OC(C)=O,,MT-4,IIIB,>100 µg/mL
COc1ccc(/C=C/CSc2nc(C(C)c3c(Cl)cccc3Cl)c(C)c(=O)[nH]2)cc1,RT-Y188L,MT-4,NNRTI-resistant,126 µM
COc1ccc(Nc2nc3cc(C(F)(F)F)ccc3n3cccc23)cc1,,MT-4,,>100 µM
Nc1nc(=O)n([C@H]2CC[C@@H](CO)O2)cc1F,,MT-4,RF,0.2 µM
CN1c2ccccc2C2C1C=CC(=O)N2c1ccc(-c2nc(C(=O)O)cs2)cc1,,MT-4,LAI,1–32 µM
C#C[C@]1(CO)O[C@@H](n2cnc3cncnc32)C[C@@H]1O,,MT-4,IIIB,38 µg/mL
CCn1cc(C(=O)O)c(=O)c2cc(F)c(N3CCN(CN4C(=O)/C(=N\c5ncc(Cc6cc(OC)c(OC)c(OC)c6)c(N)n5)c5cc(Cl)ccc54)CC3)cc21,,MT-4,IIIB,11.3 µg/mL
CC(C)CCC[C@@H](C)[C@H]1CC[C@H]2[C@@H]3CC[C@H]4C[C@@H](CCC=C(c5cc(Cl)c(O)c(C(=O)O)c5)c5cc(Cl)c(O)c(C(=O)O)c5)CC[C@]4(C)[C@H]3CC[C@]12C,,MT-4,IIIB,3 µM
Cc1c(OC(=O)CCCCOc2ccc(C[C@H](NC(=O)OC(C)(C)C)C(=O)O)cc2)cccc1C(=O)N[C@@H](CSc1ccccc1)[C@H](O)CN1C[C@H]2CCCC[C@H]2C[C@H]1C(=O)NC(C)(C)C,,MT-4,IIIB,0.116 µM
Nc1ncnc2c1ncn2[C@H]1C[C@@H](O)[C@H](CO)O1,,MT-4,IIIB,>1000 µM
N#Cc1c2c3c(c4ccccc4n3CC(CN3CCOCC3)O2)n(-c2ccc([N+](=O)[O-])cc2)c1=O,,MT-4,LAI,4.51 µM
O=P(O)(O)OP(=O)(O)OP(=O)(O)OP(=O)(O)OP(=O)(O)OP(=O)(O)OP(=O)(O)OP(=O)(O)OP(=O)(O)OP(=O)(O)OP(=O)(O)OP(=O)(O)OP(=O)(O)OP(=O)(O)OP(=O)(O)O,,CEM,IIIB,<33.3 µg/mL
C[C@H](Cn1cnc2c(NCCCC3CCCCC3)ncnc21)OCP(=O)(O)O,,CEM,IIIB,10 ± 0 µg/mL
O=S(=O)(O)c1cc(S(=O)(=O)O)c2cc(NS(=O)(=O)c3ccc(-c4ccc(S(=O)(=O)Nc5ccc6cc(S(=O)(=O)O)cc(S(=O)(=O)O)c6c5)cc4)cc3)ccc2c1,,MT-4,IIIB,>47 µM
N#Cc1c2c3c(c4ccccc4n3CCO2)n(-c2ccc([N+](=O)[O-])cc2)c1=O,,MT-4,LAI,0.51 µM
CCn1cc(C(=O)O)c(=O)c2cc(F)c(N3CCN(CN4C(=O)C(=Nc5ccc(S(=O)(=O)Nc6ncccn6)cc5)c5cc(Cl)ccc54)CC3)cc21,,MT-4,IIIB,>63 µg/mL
CC(C)(C)NC(=O)[C@@H]1CN(Cc2cccnc2)CCN1C[C@H](C[C@@H](Cc1ccccc1)C(=O)N[C@H]1c2ccccc2C[C@H]1O)OC(=O)NCCCCOc1ccc(C[C@H](N)C(=O)O)cc1,,MT-4,IIIB,12 µM
C=CCNc1nc(N)nc2c1ncn2CCOCP(=O)(O)O,,MT-4,IIIB,>100 µg/mL
CCCCCCCC/C=C\CCCCCCCC(=O)OCC(COC(=O)CCCCCCC/C=C\CCCCCCCC)OC(=O)CCC(=O)O[C@@H](C[C@@H](Cc1ccccc1)C(=O)N[C@H]1c2ccccc2C[C@H]1OC(=O)CCC(=O)OC(COC(=O)CCCCCCC/C=C\CCCCCCCC)COC(=O)CCCCCCC/C=C\CCCCCCCC)CN1CCN(Cc2cccnc2)C[C@H]1C(=O)NC(C)(C)C,,MT-4,IIIB,>10 µM
CCc1nc(-c2ccc(N3C(=O)C=CC4C3c3ccccc3N4C)cc2)no1,,MT-4,LAI,1–32 µM
COc1cc(OCc2nc3cc(C(F)(F)F)ccc3n3cccc23)cc(OC)c1OC,,MT-4,,>100 µM
Cn1c2ccccc2c2c1cc(C#N)c(=O)n2-c1ccc([N+](=O)[O-])cc1,RT-I31L L100I K103N E138G Y181C L214F,MT-4,J,0.13 µM
CCCCCCCCCCCCCCCCOCC(COP(=O)(O)O)OCCCCCCCCCCCCCCCC,,MT-4,IIIB,>5 µM
COc1ccc(/C=C/CSc2nc(Cc3c(F)cccc3F)c(C)c(=O)[nH]2)cc1,RT-Y188L,MT-4,NNRTI-resistant,>393 µM
CC(=O)OC1[C@]2(C)[C@H]3CC(C)(C)C(=O)[C@@H]3C[C@@]1(OC(C)=O)[C@H](OC(=O)CO)[C@H]1[C@@H](OC(=O)c3ccccc3)[C@@H](C)C[C@]1(O)[C@@H]2OC(C)=O,,MT-4,IIIB,>100 µg/mL
CCc1c(C(C)c2c(F)cccc2F)nc(SC/C=C/c2ccc([N+](=O)[O-])cc2)[nH]c1=O,RT-Y181C,MT-4,NNRTI-resistant,>575 µM
Cc1c(OC(=O)CCCCOc2ccc(C[C@H](NC(=O)OC(C)(C)C)C(=O)O)cc2)cccc1C(=O)N[C@@H](CSc1ccccc1)[C@@H](CN1C[C@H]2CCCC[C@H]2C[C@H]1C(=O)NC(C)(C)C)OC(=O)CCCCOc1ccc(C[C@H](NC(=O)OC(C)(C)C)C(=O)O)cc1,,MT-4,IIIB,4.7 µM
O=c1ccn([C@H]2C[C@@H](O)[C@H](CO)O2)c(=O)[nH]1,,MT-4,IIIB,>100 µM
CC(C)N(CC1Cn2c3ccccc3c3c2c(c(C#N)c(=O)n3-c2ccc([N+](=O)[O-])cc2)O1)C(C)C,,MT-4,LAI,1.96 µM
CCN(C)c1ncnc2c1ncn2C[C@@H](C)OCP(=O)(O)O,,CEM,IIIB,5.5 ± 2.1 µg/mL
CCn1cc(C(=O)O)c(=O)c2cc(F)c(N3CCN(CN4C(=O)/C(=N\c5ncc(Cc6cc(OC)c(OC)c(OC)c6)c(N)n5)c5cc(Br)ccc54)CC3)cc21,,MT-4,IIIB,13.9 µg/mL
COc1ccc(OCc2nc3ccccc3n3cccc23)cc1,,MT-4,,>16 µM

The last 3 rows once more:

smiles	changes	cell line	strain or isolate	result
CCN(C)c1ncnc2c1ncn2C[C@@H](C)OCP(=O)(O)O		CEM	IIIB	5.5 ± 2.1 µg/mL
CCn1cc(C(=O)O)c(=O)c2cc(F)c(N3CCN(CN4C(=O)/C(=N\c5ncc(Cc6cc(OC)c(OC)c(OC)c6)c(N)n5)c5cc(Br)ccc54)CC3)cc21		MT-4	IIIB	13.9 µg/mL
COc1ccc(OCc2nc3ccccc3n3cccc23)cc1		MT-4		>16 µM